Several values for one entry are separate records, joined by “and”; a condition that tells them apart may be missing. Equal entries are not always repeated. Where two headings read alike, the source gives them in different places. Marks after values point to notes of the source that are not given here.
Experiments:
B/Townsville/2/2011 = assay: microbe, parasite or virus in culture; type: cell-based; settings: unidentified influenza virus; Table 8; means of at least three determinations
B/Sichuan/379/99 (FluB) = settings: mouse, in vivo
A/Victoria/503/06 = assay: microbe, parasite or virus in culture; type: cell-based; settings: unidentified influenza virus; Table 8; means of at least three determinations
A/Sydney/250/99 (H1N1) = settings: for MTT colorimetric assay reading, single wells / % over Control (no Infection) / MTT colorimetric assay reading, Average: 5 μg/mL, 72 h
A/Duck/MN/1525/81 (H5N1) = settings: mouse, in vivo
A/Sydney/5/97 (H3N2) = settings: for MTT colorimetric assay reading, single wells / % over Control (no Infection) / MTT colorimetric assay reading, Average: 5 μg/mL, 72 h
A/Townsville/74/2011 = assay: microbe, parasite or virus in culture; type: cell-based; settings: unidentified influenza virus; Table 8; means of at least three determinations
A/Solomon Island/3/06 = assay: microbe, parasite or virus in culture; type: cell-based; settings: unidentified influenza virus; Table 8; means of at least three determinations
[1] = system: influenza A/PR/8 (H1N1) virus (500 pfu/mouse)
A/Victoria/3/75 (H3N2) = settings: mouse, in vivo
[2] = system: influenza A/PR/8 (H1N1) virus (500 pfu/mouse); settings: in vivo
A/Victoria/170/2012 = assay: microbe, parasite or virus in culture; type: cell-based; settings: unidentified influenza virus; Table 8; means of at least three determinations
A/Mississippi/03/01 WT = assay: microbe, parasite or virus in culture; type: cell-based; settings: unidentified influenza virus; Table 8; means of at least three determinations
A/Perth/261/2009 = assay: microbe, parasite or virus in culture; type: cell-based; settings: unidentified influenza virus; Table 8; means of at least three determinations
A/Sydney/250/99 [3] = settings: Condition 6, 0.5 μg/mL
[4] = system: influenza A/California/04/2009 (H1N1pdm) virus; settings: mouse, in vivo
A/Sydney/5/97 = assay: microbe, parasite or virus in culture; type: cell-based; settings: unidentified influenza virus; Table 8; means of at least three determinations
A/Sydney/250/99 [5] = assay: microbe, parasite or virus in culture; type: cell-based; settings: unidentified influenza virus; Table 8; means of at least three determinations
[6] = system: A/California/04/2009 (H1N1); settings: mouse, in vivo
[7] = system: influenza A/PR/8 (H1N1) virus (500 pfu/mouse); settings: in vivo, ip
[8] = Condition 5 (compound 30 min, then trypsin 30 min, R.T.)
[9] = Condition 6 (virus, compound and trypsin mixed 1 hr, R.T.)
[10] = Condition 7 (virus mixed with compound 1 hr, R.T.)

Compound: CC(=O)N[C@H]1[C@H]([C@H](O)[C@H](O)CO)OC(C(=O)O)=C[C@@H]1N=C(N)N [Zanamivir, reference compound]
- EC50 (B/Townsville/2/2011): > 1790 nM
- Mice survivors/total (B/Sichuan/379/99 (FluB)): 9/10
- EC50 (A/Victoria/503/06): > 198 nM
- extracellular neutralisation of virus by pre-treatment (A/Sydney/250/99 (H1N1)): did not affect the infectivity
- MTT colorimetric assay reading, single wells (A/Sydney/250/99 (H1N1); [8]): 0.419 and 0.409 and 0.625
- % over Control (no Infection) (A/Sydney/250/99 (H1N1); Condition 5): 21%
- MTT colorimetric assay reading, Average (A/Sydney/250/99 (H1N1); Condition 5): 0.484
- MTT colorimetric assay reading, single wells (A/Sydney/250/99 (H1N1); [9]): 0.446 and 0.512 and 0.443
- % over Control (no Infection) (A/Sydney/250/99 (H1N1); Condition 6): 21%
- MTT colorimetric assay reading, Average (A/Sydney/250/99 (H1N1); Condition 6): 0.467
- MTT colorimetric assay reading, single wells (A/Sydney/250/99 (H1N1); [10]): 0.663 and 0.791
- % over Control (no Infection) (A/Sydney/250/99 (H1N1); Condition 7): 32%
- MTT colorimetric assay reading, Average (A/Sydney/250/99 (H1N1); Condition 7): 0.727
- Mice survivors/total (A/Duck/MN/1525/81 (H5N1)): 7/10
- extracellular neutralisation of virus by pre-treatment (A/Sydney/5/97 (H3N2)): did not affect the infectivity
- MTT colorimetric assay reading, single wells (A/Sydney/5/97 (H3N2); [8]): 0.329 and 0.325 and 0.303
- % over Control (no Infection) (A/Sydney/5/97 (H3N2); Condition 5): 12%
- MTT colorimetric assay reading, Average (A/Sydney/5/97 (H3N2); Condition 5): 0.319
- MTT colorimetric assay reading, single wells (A/Sydney/5/97 (H3N2); [9]): 0.32 and 0.336 and 0.324
- % over Control (no Infection) (A/Sydney/5/97 (H3N2); Condition 6): 13%
- MTT colorimetric assay reading, Average (A/Sydney/5/97 (H3N2); Condition 6): 0.327
- MTT colorimetric assay reading, single wells (A/Sydney/5/97 (H3N2); [10]): 0.322 and 0.298 and 0.293
- % over Control (no Infection) (A/Sydney/5/97 (H3N2); Condition 7): 12%
- MTT colorimetric assay reading, Average (A/Sydney/5/97 (H3N2); Condition 7): 0.304
- EC50 (A/Townsville/74/2011): > 15 nM
- EC50 (A/Solomon Island/3/06): > 44 nM
- Survivors/Total ([1]; Table 38, […], dose not given): 0/5^c
- Survivors/Total ([1]; mouse, in vivo): 0/5^c
- Mice survivors/total (A/Victoria/3/75 (H3N2)): 8/10 and 3/10
- Mice survivors/total [2]: 0/5
- EC50 (A/Victoria/170/2012): > 596 nM
- EC50 (A/Mississippi/03/01 WT): > 66 nM
- EC50 (A/Perth/261/2009): 6.6 nM
- % (of Control) (A/Sydney/250/99 [3]; 1 min): 33%
- assay reading, Average (A/Sydney/250/99 [3]; 1 min): 0.568
- % (of Control) (A/Sydney/250/99 [3]; 5 min): 29%
- assay reading, Average (A/Sydney/250/99 [3]; 5 min): 0.502
- assay reading, single wells (A/Sydney/250/99 [3]; 5 min): 0.394 and 0.609
- % (of Control) (A/Sydney/250/99 [3]; 10 min): 24%
- assay reading, Average (A/Sydney/250/99 [3]; 10 min): 0.407
- assay reading, single wells (A/Sydney/250/99 [3]; 10 min): 0.326 and 0.487
- % (of Control) (A/Sydney/250/99 [3]; 20 min): 35%
- assay reading, Average (A/Sydney/250/99 [3]; 20 min): 0.595
- assay reading, single wells (A/Sydney/250/99 [3]; 20 min): 0.461 and 0.728
- % (of Control) (A/Sydney/250/99 [3]; 25 min): 20%
- assay reading, Average (A/Sydney/250/99 [3]; 25 min): 0.349
- assay reading, single wells (A/Sydney/250/99 [3]; 25 min): 0.375 and 0.322
- % (of Control) (A/Sydney/250/99 [3]; 30 min): 21%
- assay reading, Average (A/Sydney/250/99 [3]; 30 min): 0.355
- assay reading, single wells (A/Sydney/250/99 [3]; 30 min): 0.357 and 0.353
- Survivors/Total [4]: 0/9^c and 0/10
- EC50 (A/Sydney/5/97): > 24 nM
- EC50 (A/Sydney/250/99 [5]): > 198 nM
- Mice survivors/total [6]: 2/10
- Survivors/Total [7]: 0/5^c
